The text below walks through data of patent US6416735B1 (priority 1999, dated 2002).

Protein sequences, listed by entry. Tags and fused reporters are not part of them. Lines headed by an entry give the natural chain unless they say otherwise; changes in a name come on top.
UniProt Q05941: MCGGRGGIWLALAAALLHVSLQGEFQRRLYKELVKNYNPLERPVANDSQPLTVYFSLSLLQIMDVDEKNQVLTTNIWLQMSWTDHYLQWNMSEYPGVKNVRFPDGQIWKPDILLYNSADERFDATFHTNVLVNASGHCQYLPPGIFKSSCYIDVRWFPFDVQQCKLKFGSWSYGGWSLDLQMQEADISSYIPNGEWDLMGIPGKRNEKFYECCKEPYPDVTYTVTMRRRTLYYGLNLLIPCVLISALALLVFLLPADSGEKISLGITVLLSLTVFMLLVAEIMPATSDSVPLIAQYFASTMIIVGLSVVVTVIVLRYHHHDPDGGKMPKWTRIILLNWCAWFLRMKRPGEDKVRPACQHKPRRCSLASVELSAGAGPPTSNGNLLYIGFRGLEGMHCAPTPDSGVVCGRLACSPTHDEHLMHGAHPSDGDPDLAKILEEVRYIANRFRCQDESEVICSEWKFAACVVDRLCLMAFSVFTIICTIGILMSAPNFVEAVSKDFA

pKd: −log10 of the molar value.

For experiment [1], the target named is T1, α7 nAChR (Rattus norvegicus, UniProt Q05941). Put plainly: [^125I]iodo-MLA association and dissociation binding experiments.
The next experiment addresses α7 nAChRs (Rattus norvegicus, UniProt Q05941). Put plainly: [^125I]iodo-MLA brain region binding studies. The following applies: N=2, mean±SD.
Experiment [2] has as its target T1, α7 nAChR. The experiment in a line: [^125I]iodo-MLA saturation binding in rat cerebral cortex homogenates.

[^125I]Iodo-methyllycaconitine: the “Koff (rate of dissociation)” value at α7 nAChR [1] (300 uM nicotine added, three experiments) was 0.0012 ± 0.00017 s⁻¹. The “Kobs (apparent rate of association)” value at α7 nAChR [1] (approximately 0.3 nM radioligand, N=3) turned out to be 0.08 ± 0.02 min⁻¹. The “association t½” value at α7 nAChR [1] (one-phase exponential association, N=3) was found to be 10.5 ± 3.1 min. The pKd on α7 nAChR [1] (read-out: derived Kd (Koff/Kon), from rate constants) is 8.68. Further, the “ratio of specific binding to specific cerebellar binding, hippocampus” value on α7 nAChRs (hippocampus) turned out to be 8.2±0.9. Besides, the “ratio of specific binding to specific cerebellar binding, striatum” value at α7 nAChRs (striatum) amounted to 1.1±0.8. The “ratio of specific binding to specific cerebellar binding, thalamus/hypothalamus” value on α7 nAChRs (thalamus/hypothalamus) amounted to 4.2±1.4. The “Specific binding as % of total binding” value on α7 nAChR [2] (at 100 pM, rat brain cerebral cortex homogenates) is 70-80%. Also, the Bmax at α7 nAChR [2] (one-site model, N=6) is on record as 68±3 fmol/mg protein.
